{
  "source": "patent US12138308B2",
  "about": "“Polymer composite for helicobacter pylori recognition and composition for photodynamic therapy comprising same” (eNBiaR Inc., priority 2018, dated 2024)",
  "key": {"[1]": {"test_system": "AGS cells (human gastric cancer cells)", "experiment": "Cytotoxicity by concentration in AGS cells (MTT test)", "format": "cell-based", "conditions": "4 hours, at 0.5 μg/mL or less of pheophorbide a, no laser"}, "[2]": {"test_system": "Helicobacter pylori (H. pylori) SS1 strain", "experiment": "Treatment of Helicobacter pylori SS1 infection in Balb/c mice, CFU assay of stomach", "format": "in vivo", "conditions": "balb c mice, oral"}, "AGS cells": {"test_system": "AGS cells", "experiment": "Cellular phototoxicity by laser irradiation dose in AGS cells (MTT assay)", "conditions": "0.5 μg/mL based on pheophorbide a, 30 minutes"}, "[3]": {"test_system": "Helicobacter pylori 26695 strain", "experiment": "Antibacterial activity in vitro by laser dose, CFU assay, 26695 strain", "format": "cell-based", "conditions": "same laser conditions"}},
  "data": [
    {"substance": "butyl-poly(3SL-lysine)10-pheoa", "values": [
      {"measurement": "cytotoxicity (MTT cell viability)", "setting": "[1]", "result": "hardly exhibited cytotoxicity"},
      {"measurement": "Helicobacter pylori colonies, laser-irradiated group (+)", "setting": "[2]; 40 mW laser 250 seconds, total 10 J/cm^2 into the stomach", "result": "6.7×10^4 CFU/stomach"},
      {"measurement": "Helicobacter pylori colonies, laser-non-irradiated group (−)", "setting": "[2]; stomach removed two days after final administration, no laser", "result": "1.6×10^7 CFU/stomach"},
      {"measurement": "cytotoxicity until 2.4 J/cm^2 laser irradiation", "setting": "AGS cells", "result": "little cytotoxicity"},
      {"measurement": "cytotoxicity at 4.0 J/cm^2", "setting": "AGS cells; 4.0 J/cm^2 laser", "result": "about 30%"},
      {"measurement": "laser irradiation dose from which cytotoxicity appeared", "setting": "AGS cells; 50 mW laser", "result": 3.2, "unit": "J/cm^2"}
    ]},
    {"substance": "butyl-poly(6SL-lysine)10-Pheoa", "values": [
      {"measurement": "antibacterial activity compared to butyl-poly(3SL-lysine)10-Pheoa", "setting": "[3]", "result": "very low antibacterial activity"}
    ]}
  ]
}
